From patent publication US20200010516

Columns and labels:
Assay in all cases: cell-based or functional assay
[1] = target: integrin αvβ3 on CHO-αvβ3 cells, not stated, P06756 31-1048; P05106 27-788
[2] = target: integrin αIIbβ3 on CHO-αIIbβ3 cells, not stated, P08514 32-1039; P05106 27-788
[3] = target: integrin αvβ5 on HT-29 cells, human, P06756 31-1048; P18084 24-799
[4] = target: integrin αIIbβ3 on platelets of healthy donors, not stated, P08514 32-1039; P05106 27-788
[5] = target: integrin αvβ6 on HT-29 cells, human, P06756 31-1048; P18564 22-788
[6] = target: integrin α5β1 on K562 cells, human, P08648 42-1049; P05556 21-798

| Substance | IC50, adhesion of CHO-αvβ3 cells to fibrinogen [1] | IC50, adhesion of CHO-αIIbβ3 cells to fibrinogen [2] | IC50, adhesion of HT-29 cells to vitronectin [3] | IC50, Platelet Aggregation [4] | IC50, adhesion of HT-29 cells to fibronectin [5] | IC50, adhesion of K562 cells to fibronectin [6] |
| --- | --- | --- | --- | --- | --- | --- |
| ^39SRAGK-^46RIARGDDP-^66RYH | 45.3 nM | 5.12 µM | 6.89 µM | 0.753 µM | 15 µM |  |
| ^39SRAGK-^46RIARLDDL-^66RYH | 42 nM | 23.2 µM | 0.941 µM | 10.4 µM | 20.7 µM | 14.5 µM |
